Pooled drug test results. Numbers come from NIAID ChemDB, via PubChem.

All rows: tests on isolated targets

ICn: concentration for n% inhibition. Lines come from different laboratories, so protocols vary. Blank or dashed fields: not listed here. Inhibition is in % at the dose shown (toxicity tests: loss of growth or viability). Fold resistance: result on the changed form divided by that on wild type. a–b is a range or a potency band.

compound	organism	strain	changes	protein	read by	read-out	tested at	result
O=C1c2c(O)c(=O)c(-c3nccs3)cn2CCN1CCCc1ccccc1	HIV-1	-	-	Integrase	ELISA	IC50	-	0.01–0.1 µM
CCCN=C(NC#N)NCCC(C)(C)CN(C[C@@H](O)[C@H](Cc1ccccc1)NC(=O)O[C@H]1CO[C@H]2OCC[C@H]21)S(=O)(=O)c1ccc2c(c1)OCO2	HIV-1	-	-	Protease	fluorescence	Ki	-	<0.001 µM
CC(C)(C)c1ccc(-n2nnnc2SCC(=O)Nc2ccc(C(=O)NCCc3ccncc3)cc2Cl)c(Cl)c1	HIV-1	WT	-	Reverse transcriptase	PicoGreen / fluorescence	IC50	-	<1 µM
COCC(=O)NCCC(C)(C)CN(C[C@@H](O)[C@H](Cc1ccccc1)NC(=O)O[C@H]1CO[C@H]2OCC[C@H]21)S(=O)(=O)c1ccc2c(c1)OCO2	HIV-1	-	-	Protease	fluorescence	Ki	-	<0.001 µM
Cc1ccc(C(F)(F)F)c(Cl)c1-n1nnnc1SCC(=O)Nc1ccc(C#CC(C)(C)O)cc1Cl	HIV-1	WT	-	Reverse transcriptase	PicoGreen / fluorescence	IC50	-	<1 µM
CC(C)(C)NC(=O)[C@H]1C[C@@H](O)CCN1C(=O)[C@@H](O)[C@H](Cc1ccccc1)NC(=O)[C@H](CC(N)=O)NC(=O)OCc1ccccc1	HIV-1	-	-	Protease	-	inhibition	5 µM	16%
CNC(=S)NCCCC(C)(C)CN(C[C@@H](O)[C@H](Cc1ccccc1)NC(=O)O[C@H]1CO[C@H]2OCC[C@H]21)S(=O)(=O)c1ccc2c(c1)OCO2	HIV-1	-	-	Protease	fluorescence	Ki	-	<0.001 µM
CC(C)(C)NC(=O)[C@H]1Cc2ccccc2CN1C(=O)[C@@H](O)[C@H](Cc1ccccc1)NC(=O)[C@H](CC(N)=O)NC(=O)OCc1ccccc1	HIV-1	-	-	Protease	-	inhibition	0.05 µM	8.6%
Nc1nc2c(ncn2[C@H]2CO[C@@H](COP(=O)(O)OP(=O)(O)OP(=O)(O)O)O2)c(=O)[nH]1	HIV	-	RT-K103N	Reverse transcriptase	radiometric	Ki	-	0.02 µM
CC(C)(CCNS(C)(=O)=O)CN(C[C@@H](O)[C@H](Cc1ccccc1)NC(=O)O[C@H]1CO[C@H]2OCC[C@H]21)S(=O)(=O)c1ccc(N)cc1	HIV-1	-	-	Protease	fluorescence	Ki	-	<0.001 µM
CC(C)(C)NC(=O)[C@@H]1CSCN1C(=O)[C@@H](O)[C@H](Cc1ccccc1)NC(=O)[C@H](CC(N)=O)NC(=O)OCc1ccccc1	HIV-1	-	-	Protease	-	IC50	-	<5 µM
CC(C)(C)c1ccc(-n2nnnc2SCC(=O)Nc2ccc(-c3ccc(OCCN4CCCCC4)cc3)cc2Cl)c(Cl)c1	HIV-1	WT	-	Reverse transcriptase	PicoGreen / fluorescence	IC50	-	<1 µM
CCCC(=O)Nc1cn2ccn(Cc3cccc(Cl)c3)c(=O)c2c(O)c1=O	HIV-1	-	-	Integrase	ELISA	IC50	-	<0.01 µM
CC(C)(CCCCNC(=O)c1ccc(F)cc1)CN(C[C@@H](O)[C@H](Cc1ccccc1)NC(=O)O[C@H]1CO[C@H]2OCC[C@H]21)S(=O)(=O)c1ccc2c(c1)OCO2	HIV-1	-	-	Protease	fluorescence	Ki	-	<0.001 µM
CC(C)(C)c1ccc(-n2nnnc2SCC(=O)Nc2ccc(OCC(=O)Nc3cccc(O)c3)cc2Cl)c(Cl)c1	HIV-1	-	RT-K103 Y181C	Reverse transcriptase	PicoGreen / fluorescence	IC50	-	<1 µM
CC[C@H](C)[C@H](NC(=O)[C@@H]1CCCN1C(=O)[C@@H](O)[C@H](Cc1ccccc1)NC(=O)[C@H](CC(N)=O)NC(=O)CCc1ccccc1)C(=O)N[C@H](C(N)=O)C(C)C	HIV-1	-	-	Protease	-	inhibition	5 µM	93%
CC(C)(C)c1ccc(-n2nnnc2SCC(=O)Nc2ccc(OCC(=O)NCCN3CCOCC3)cc2Cl)c(Cl)c1	HIV-1	-	RT-K103 Y181C	Reverse transcriptase	PicoGreen / fluorescence	IC50	-	<1 µM
CNc1cccc(S(=O)(=O)N(C[C@@H](O)[C@H](Cc2ccccc2)NC(=O)O[C@H]2CO[C@H]3OCC[C@H]32)CC(C)(C)CCNS(C)(=O)=O)c1	HIV-1	-	-	Protease	fluorescence	Ki	-	<0.001 µM
Nc1ccn([C@H]2CC[C@@H](COP(=O)(O)OP(=O)(O)OP(=O)(O)O)O2)c(=O)n1	HIV	-	RT-L74V T215Y	Reverse transcriptase	-	fold resistance	-	14.7
O=C1c2c(O)c(=O)c(-c3ccccn3)cn2CCN1CCCc1c(F)cccc1Cl	HIV-1	-	-	Integrase	ELISA	IC50	-	0.01–0.1 µM
O=C(O)Cc1ccc(-c2ccc(NC(=O)CSc3nnnn3-c3ccc(OC(F)(F)F)cc3Cl)c(Cl)c2)cc1	HIV-1	WT	-	Reverse transcriptase	PicoGreen / fluorescence	IC50	-	<1 µM
CC(C)(CCCCCNC(=O)C1CC1)CN(C[C@@H](O)[C@H](Cc1ccccc1)NC(=O)O[C@H]1CO[C@H]2OCC[C@H]21)S(=O)(=O)c1ccc2c(c1)OCO2	HIV-1	-	-	Protease	fluorescence	Ki	-	<0.001 µM
CC(C)(C#Cc1ccc(NC(=O)CSc2nnnn2-c2cc(F)ccc2Cl)c(Cl)c1)C(=O)O	HIV-1	WT	-	Reverse transcriptase	PicoGreen / fluorescence	IC50	-	<1 µM
CNC(=O)c1cn2ccn(Cc3ccc(F)c(Cl)c3)c(=O)c2c(O)c1=O	HIV-1	-	-	Integrase	ELISA	IC50	-	<0.01 µM
CC(C)(C)NC(=O)[C@@H]1C[C@H](C2CCCCC2)CN1C(=O)[C@@H](O)[C@H](Cc1ccccc1)NC(=O)[C@H](CC(N)=O)NC(=O)OCc1ccccc1	HIV-1	-	-	Protease	-	inhibition	0.05 µM	1%
Cc1ccc(-n2nnnc2SCC(=O)Nc2ccc(-c3cccc(CC(=O)O)c3)cc2Cl)c(Cl)c1	HIV-1	-	RT-K103 Y181C	Reverse transcriptase	PicoGreen / fluorescence	IC50	-	<1 µM
CC(C)N(C)C(=O)c1cc(=O)c(O)c2n1CCN(Cc1ccc(Cl)c(Cl)c1)C2=O	HIV-1	-	-	Integrase	ELISA	IC50	-	0.01–0.1 µM
CC(C)(C#Cc1ccc(NC(=O)CSc2nnnn2-c2cc(C(F)(F)F)c(C3CC3)cc2Cl)c(Cl)c1)C(=O)O	HIV-1	-	RT-K103 Y181C	Reverse transcriptase	PicoGreen / fluorescence	IC50	-	<1 µM
CCOC(=O)NCCC(C)(C)CN(C[C@@H](O)[C@H](Cc1ccccc1)NC(=O)O[C@H]1CO[C@H]2OCC[C@H]21)S(=O)(=O)c1cccc(N)c1	HIV-1	-	-	Protease	fluorescence	Ki	-	<0.001 µM
CN(C)S(=O)(=O)c1ccc(NC(=O)CSc2nnnn2-c2ccc(C(C)(C)C)cc2Cl)c(Cl)c1	HIV-1	WT	-	Reverse transcriptase	PicoGreen / fluorescence	IC50	-	<1 µM
CNC(=O)NCCCC(C)(C)CN(C[C@@H](O)[C@H](Cc1ccccc1)NC(=O)O[C@H]1CO[C@H]2OCC[C@H]21)S(=O)(=O)c1ccc(OC)cc1	HIV-1	-	-	Protease	fluorescence	Ki	-	<0.001 µM
O=C(CSc1nnnn1-c1ccc(C2CC2)cc1Cl)Nc1ccc(C#CC2(CN3CCCC3)CC2)cc1Cl	HIV-1	-	RT-K103 Y181C	Reverse transcriptase	PicoGreen / fluorescence	IC50	-	<1 µM
Cc1cn([C@H]2CC[C@@H](COP(=O)(O)OP(=O)(O)OP(=O)(O)O)O2)c(=O)[nH]c1=O	HIV	-	RT-L74V	Reverse transcriptase	-	fold resistance	-	3.86
CC(C)(CCCNC(=O)c1ccco1)CN(C[C@@H](O)[C@H](Cc1ccccc1)NC(=O)O[C@H]1CO[C@H]2OCC[C@H]21)S(=O)(=O)c1ccc2c(c1)OCO2	HIV-1	-	-	Protease	fluorescence	Ki	-	<0.001 µM
CC(C)(C#Cc1ccc(NC(=O)CSc2nnnn2-c2ccc(C3CC3)cc2Cl)c(Cl)c1)NC(=O)CN1CCC(C(=O)O)CC1	HIV-1	-	RT-K103 Y181C	Reverse transcriptase	PicoGreen / fluorescence	IC50	-	<1 µM
CC(C)[C@H](N)C(=O)N[C@H](C(=O)N[C@@H](Cc1ccccc1)[C@@H](O)C(=O)N[C@H](Cc1ccccc1)C(=O)N[C@@H](C(=O)N[C@@H](C(N)=O)C(C)C)C(C)C)C(C)C	HIV-1	-	-	Protease	-	inhibition	1000 µM	71.7%
CC(C)(C)c1ccc(-n2nnnc2SCC(=O)Nc2ccc(C#CC3CC3)cc2Cl)c(Cl)c1	HIV-1	-	RT-K103 Y181C	Reverse transcriptase	PicoGreen / fluorescence	IC50	-	<1 µM
CC(C)C1CN(Cc2ccc(Cl)c(Cl)c2)C(=O)c2c(O)c(=O)ccn21	HIV-1	-	-	Integrase	ELISA	IC50	-	0.01–0.1 µM
CC(C)(CCN)CN(C[C@@H](O)[C@H](Cc1ccccc1)NC(=O)O[C@H]1CO[C@H]2OCC[C@H]21)S(=O)(=O)c1cccc(N)c1	HIV-1	-	-	Protease	fluorescence	Ki	-	<0.001 µM
CC(C)(C)c1ccc(-n2nnnc2SCC(=O)Nc2ccc(OCC(=O)N3CCOCC3)cc2Cl)c(Cl)c1	HIV-1	-	RT-K103 Y181C	Reverse transcriptase	PicoGreen / fluorescence	IC50	-	<1 µM
CNc1cccc(S(=O)(=O)N(C[C@@H](O)[C@H](Cc2ccccc2)NC(=O)O[C@H]2CO[C@H]3OCC[C@H]32)CC(C)(C)CCCCNC(=O)OC(C)C)c1	HIV-1	-	-	Protease	fluorescence	Ki	-	<0.001 µM
CC(C)(C)c1ccc(-n2nnnc2SCC(=O)Nc2ccc(OCC(=O)Nc3ccccc3O)cc2Cl)c(Cl)c1	HIV-1	WT	-	Reverse transcriptase	PicoGreen / fluorescence	IC50	-	<1 µM
COCCS(=O)(=O)NCCC(C)(C)CN(C[C@@H](O)[C@H](Cc1ccccc1)NC(=O)O[C@H]1CO[C@H]2OCC[C@H]21)S(=O)(=O)c1ccc2c(c1)OCO2	HIV-1	-	-	Protease	fluorescence	Ki	-	<0.001 µM
CNC(=O)c1cc(F)ccc1CCCN1CCn2cc(-c3nccs3)c(=O)c(O)c2C1=O	HIV-1	-	-	Integrase	ELISA	IC50	-	0.01–0.1 µM
CC(C)=CCN1Cc2cccc3[nH]c(=S)n(c23)C[C@@H]1C	HIV	-	RT-Y271S	Reverse transcriptase	nucleotide incorporation	fold resistance	-	>200
CC(C)(CCCN)CN(C[C@@H](O)[C@H](Cc1ccccc1)NC(=O)O[C@H]1CO[C@H]2OCC[C@H]21)S(=O)(=O)c1cccc(N)c1	HIV-1	-	-	Protease	fluorescence	Ki	-	<0.001 µM
CC(C)COCc1cc(=O)c(O)c2n1CCN(Cc1ccc(Cl)c(Cl)c1)C2=O	HIV-1	-	-	Integrase	ELISA	IC50	-	0.01–0.1 µM
COC1C[C@@H](C(=O)NC(C)(C)C)N(C(=O)[C@@H](O)[C@H](Cc2ccccc2)NC(=O)[C@H](CS(C)(=O)=O)NC(=O)COc2cccc3ccccc23)C1	HIV-1	-	-	Protease	-	IC50	-	>0.05 µM
CC(C)(CCCCNC(=O)C(C)(C)C)CN(C[C@@H](O)[C@H](Cc1ccccc1)NC(=O)O[C@H]1CO[C@H]2OCC[C@H]21)S(=O)(=O)c1ccc2c(c1)OCO2	HIV-1	-	-	Protease	fluorescence	Ki	-	<0.001 µM
CC(C)(C)c1ccc(-n2nnnc2SCC(=O)Nc2ccc(OCC(=O)NCC(=O)O)cc2Cl)c(Cl)c1	HIV-1	-	RT-K103 Y181C	Reverse transcriptase	PicoGreen / fluorescence	IC50	-	<1 µM
CC(C)(C)NC(=O)[C@H]1N(C(=O)[C@@H](O)[C@H](Cc2ccccc2)NC(=O)[C@H](CS(C)(=O)=O)NC(=O)COc2cccc3ccccc23)CCC1(C)C	HIV-1	-	-	Protease	-	inhibition	0.05 µM	95.7%
CC(C)(C)c1ccc(-n2nnnc2SCC(=O)Nc2ccc(-c3ccc(OCCN4CC[C@H](O)C4)cc3)cc2Cl)c(Cl)c1	HIV-1	WT	-	Reverse transcriptase	PicoGreen / fluorescence	IC50	-	<1 µM
CC(C)(CCOC(=O)N1CCCC1)CN(C[C@@H](O)[C@H](Cc1ccccc1)NC(=O)O[C@H]1CO[C@H]2OCC[C@H]21)S(=O)(=O)c1ccc2c(c1)OCO2	HIV-1	-	-	Protease	fluorescence	Ki	-	<0.001 µM
CC(C)(C#Cc1ccc(NC(=O)CSc2nnnn2-c2cc(C3CC3)cc(C(F)(F)F)c2Cl)c(Cl)c1)C(=O)O	HIV-1	WT	-	Reverse transcriptase	PicoGreen / fluorescence	IC50	-	<1 µM
CC(C)(CCCCOC(=O)NCCO)CN(C[C@@H](O)[C@H](Cc1ccccc1)NC(=O)O[C@H]1CO[C@H]2OCC[C@H]21)S(=O)(=O)c1ccc2c(c1)OCO2	HIV-1	-	-	Protease	fluorescence	Ki	-	<0.001 µM
CC(C)(C#Cc1ccc(NC(=O)CSc2nnnn2-c2ccc(C(C)(C)C)cc2Cl)c(Cl)c1)C(=O)NCCN1CCOCC1	HIV-1	WT	-	Reverse transcriptase	PicoGreen / fluorescence	IC50	-	<1 µM
CC(C)(CCCNC(=O)CNS(C)(=O)=O)CN(C[C@@H](O)[C@H](Cc1ccccc1)NC(=O)O[C@H]1CO[C@H]2OCC[C@H]21)S(=O)(=O)c1ccc2c(c1)OCO2	HIV-1	-	-	Protease	fluorescence	Ki	-	<0.001 µM